Measurements published in patent US20160143995A1, “Method of Treating Intracellular Infection” (priority 2013, published 2016).

Tested on: Legionella pneumophila
Assay type: in vivo
Conditions: C57BL/6 mice, single dose 10 mg/Kg intraperitoneally six hours after infection; lungs two days after infection; P<0.05

SMILES: CC[C@H](NC(=O)[C@H](C)NC)C(=O)N1C[C@@H](O)C[C@H]1Cc1c(-c2[nH]c3cc(F)ccc3c2C[C@@H]2C[C@H](O)CN2C(=O)[C@H](CC)NC(=O)[C@H](C)NC)[nH]c2cc(F)ccc12 [Birinapant, birinapant]
- clearance of Legionella pneumophila compared to control treatment: promotes the clearance of Legionella pnemophila and disease resolution
